Source: ChEMBL document CHEMBL1123150, “Synthetic and conformational studies on anatoxin-a: a potent acetylcholine agonist” (1985)

Test system: frog
Test: Agonist efficacy was evaluated as concentration that produces 10-m V depolarization in frog sartorius muscle; activity value ranges from 0.2-0.4
Settings: Muscle tissue

## CC(=O)C1=CCCC2CCC1N2 (stereo unspecified)
  Concentration: 0.4 µM
